Results as given in article PMC10691279.

Molecular target: Collagen 1 (UniProt P02452)
Experiment: quartz crystal microbalance with dissipation

## ECF843 (recombinant human lubricin) (from UniProt Q92954 25-1404) (natural protein)
  time constant: 37 s
